# Data taken from PMC9320654, “Study on In Vitro Metabolism and In Vivo Pharmacokinetics of Beauvericin” (Toxins, 2022).
# By UniProt entry, the sequences of proteins in these tests, tags left out.
# UniProt P33261, whole entry: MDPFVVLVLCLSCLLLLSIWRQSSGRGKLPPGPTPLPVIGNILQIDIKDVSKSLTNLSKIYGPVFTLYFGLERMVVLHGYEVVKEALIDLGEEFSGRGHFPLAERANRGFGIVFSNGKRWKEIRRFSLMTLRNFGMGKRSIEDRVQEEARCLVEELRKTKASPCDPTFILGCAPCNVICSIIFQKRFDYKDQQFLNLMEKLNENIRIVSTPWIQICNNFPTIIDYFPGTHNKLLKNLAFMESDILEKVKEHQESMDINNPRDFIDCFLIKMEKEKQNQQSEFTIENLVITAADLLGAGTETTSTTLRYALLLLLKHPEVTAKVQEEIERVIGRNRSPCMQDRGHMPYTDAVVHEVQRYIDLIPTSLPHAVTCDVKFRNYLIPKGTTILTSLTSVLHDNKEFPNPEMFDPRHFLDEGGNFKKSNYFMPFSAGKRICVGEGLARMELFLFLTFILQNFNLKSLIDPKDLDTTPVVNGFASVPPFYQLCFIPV
# Values joined by “and” are separate entries in the source; they are usually repeats but may differ in a detail not shown here. Equal values may be shown once.
# Key:
# CYP2C19 = target: T1, CYP2C19 (Homo sapiens, UniProt P33261); test: CYP inhibition evaluation in human liver microsomes, CYP2C19 (S-mephenytoin); type: in vitro ADME; conditions: HLMs
# T1 construct: tissue Corning or Xenotech; host or cells: human liver microsomes (mixed gender)
# [1] = Metabolic stability in liver microsomes, HLM; type: in vitro ADME, human; conditions: scaled from HLM CLint(mic)
# Excerpt: […]. […] […]
# [2] = Plasma stability, human plasma; type: in vitro ADME
# Description: (§1) The pooled frozen plasma was thawed in a water bath at 37 °C prior to the experiment. Plasma was centrifuged at 4000 rpm for 5 min, and the clots, if any, were removed. Using an Apricot automation workstation, blank plasma (98 μL/well) was added to six 96-well reaction plates (Blank, T0, T10, T30, T60, and T120). An Apricot automation workstation was used to add working solution (2 μL/well, 100 μM) to all reaction plates except the Blank plate (T0, T10, T30, T60, and T120). All reaction plates containing mixtures of compound and plasma were incubated at 37 °C in a water bath. At the end of the incubation, 400 μL of stop solution (200 ng/mL tolbutamide and 200 ng/mL labetalol in acetonitrile) was added to precipitate the protein, and the mixture was mixed thoroughly. Samples were then vortexed and centrifuged (20 min, 4000 rpm, 4 °C). After centrifugation, an Apricot automation workstation was used to transfer 50 μL of supernatant into 100 μL of HPLC water. […] The % remaining test compound after incubation in plasma was calculated using the following equation:(11) % Remaining= PAR at appointed incubation time/PAR at T0 time×100 where PAR is the peak area ratio of analyte versus internal standard (IS). […]
# [3] = Plasma stability, dog plasma; type: in vitro ADME; conditions: dog plasma (stated for the plasma of the five species)
# Description: as §1
substance,measurement,setting,value
Beauvericin,CYP2C19 inhibitor class,CYP2C19,potent inhibitor (IC50 < 10 μM—potent inhibitor)
same,CLint(liver),[1],< 30 mL/min/kg and 27.8 mL/min/kg
same,T1/2,"[2]; 37 °C, n = 2",>4.82 h
same,Remaining % (T = 120 min),[2]; 120 min,106.0%
same,T1/2 in plasma,[3],approximately 5 h
